Values from PubChem BioAssay AID1259414 (Drosophila RNAi Screening Center, 2018).

- Purpose: 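Genome-wide screen for host control of endosymbiont load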 (primary screen)
- Cell system: Drosophila JW18 cells infected with Wolbachia
- Knock-down reagent: long dsRNA against Drosophila genes, 0.25 µg dsRNA per well of a 384-well plate
- Timing: 5 days
- Treatment: cells persistently infected with Wolbachia before knock-down; no added drug
- Measured: 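Imaged fluorescence in situ signal for Wolbachia 23S rRNA per DAPI-counted host cell, given as a robust z-score within each plate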
- Reading the numbers: Wolbachia per cell robust z: higher = more Wolbachia per host cell than the plate typical
- Active means: 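Active if absolute robust z reaches 1.5 in two or more of three replicates, leaving out multi- or no-target dsRNAs, genes unexpressed in JW18 and A1 wells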
The deposit covers about 24,000 reagents; below is an unselected part of those with a known target gene and a result. Over the whole deposit, about 1,210 (5%) are marked active. 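Inactive calls also include excluded dsRNAs with several or no targets, genes unexpressed in JW18, and well A1, regardless of score.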 Entries without a mark were called inactive. Names joined by + are all predicted targets of the reagent.

Ubc84D [DRSC12610] — Wolbachia per cell robust z, rep 1 = 0.986; Wolbachia per cell robust z, rep 2 = -0.168; Wolbachia per cell robust z, rep 3 = -0.732
Ubc84D [DRSC25384] — Wolbachia per cell robust z, rep 1 = -2.47; Wolbachia per cell robust z, rep 2 = -2.33; Wolbachia per cell robust z, rep 3 = -1.6
CG43106 [DRSC04279] — Wolbachia per cell robust z, rep 1 = 0.013; Wolbachia per cell robust z, rep 2 = 0.998; Wolbachia per cell robust z, rep 3 = 0.785
SCCRO3 [DRSC06359] — Wolbachia per cell robust z, rep 1 = 0.603; Wolbachia per cell robust z, rep 2 = -0.094; Wolbachia per cell robust z, rep 3 = 1.26
SCCRO3 [DRSC26409] — Wolbachia per cell robust z, rep 1 = 1.08; Wolbachia per cell robust z, rep 2 = 1.93; Wolbachia per cell robust z, rep 3 = -0.216
Hpr1 [DRSC12296] — Wolbachia per cell robust z, rep 1 = -2.86 (active); Wolbachia per cell robust z, rep 2 = -5.86; Wolbachia per cell robust z, rep 3 = -0.4
CG11843 [DRSC14401] — Wolbachia per cell robust z, rep 1 = -0.456; Wolbachia per cell robust z, rep 2 = -0.807; Wolbachia per cell robust z, rep 3 = -0.92
CG7857 [DRSC10925] — Wolbachia per cell robust z, rep 1 = -0.0675; Wolbachia per cell robust z, rep 2 = 0.521; Wolbachia per cell robust z, rep 3 = 1.03
CG7857 [DRSC29862] — Wolbachia per cell robust z, rep 1 = -0.147; Wolbachia per cell robust z, rep 2 = 0.102; Wolbachia per cell robust z, rep 3 = -1.09
CG8360 [DRSC03085] — Wolbachia per cell robust z, rep 1 = 0.691; Wolbachia per cell robust z, rep 2 = -0.0126; Wolbachia per cell robust z, rep 3 = 0.12
CG8360 [DRSC26870] — Wolbachia per cell robust z, rep 1 = -0.735; Wolbachia per cell robust z, rep 2 = -1.86; Wolbachia per cell robust z, rep 3 = -1.07
CG12107 [DRSC06102] — Wolbachia per cell robust z, rep 1 = -0.46; Wolbachia per cell robust z, rep 2 = -2.43; Wolbachia per cell robust z, rep 3 = 0.162
CG34452 [DRSC40585] — Wolbachia per cell robust z, rep 1 = -0.224; Wolbachia per cell robust z, rep 2 = 1.09; Wolbachia per cell robust z, rep 3 = -0.164
CG34250 [DRSC38751] — Wolbachia per cell robust z, rep 1 = -3.93; Wolbachia per cell robust z, rep 2 = 0.173; Wolbachia per cell robust z, rep 3 = -1.17
tim [DRSC00841] — Wolbachia per cell robust z, rep 1 = 0.829; Wolbachia per cell robust z, rep 2 = 0.266; Wolbachia per cell robust z, rep 3 = -0.249
CG15368 [DRSC23291] — Wolbachia per cell robust z, rep 1 = -1.44; Wolbachia per cell robust z, rep 2 = -1.7; Wolbachia per cell robust z, rep 3 = -0.244
CG15368 [DRSC25848] — Wolbachia per cell robust z, rep 1 = 0.302; Wolbachia per cell robust z, rep 2 = -0.111; Wolbachia per cell robust z, rep 3 = -0.355
mamo [DRSC19001] — Wolbachia per cell robust z, rep 1 = -0.601; Wolbachia per cell robust z, rep 2 = -0.448; Wolbachia per cell robust z, rep 3 = 0.033
mamo [DRSC19370] — Wolbachia per cell robust z, rep 1 = 0.495; Wolbachia per cell robust z, rep 2 = -0.0692; Wolbachia per cell robust z, rep 3 = 0.459
mamo [DRSC19371] — Wolbachia per cell robust z, rep 1 = -1.46; Wolbachia per cell robust z, rep 2 = 1.01; Wolbachia per cell robust z, rep 3 = -3.52
mamo [DRSC19372] — Wolbachia per cell robust z, rep 1 = -0.108; Wolbachia per cell robust z, rep 2 = 0.591; Wolbachia per cell robust z, rep 3 = -0.344
mamo [DRSC23035] — Wolbachia per cell robust z, rep 1 = -1.2 (active); Wolbachia per cell robust z, rep 2 = -2.71; Wolbachia per cell robust z, rep 3 = -1.98
mamo [DRSC25810] — Wolbachia per cell robust z, rep 1 = -1.77 (active); Wolbachia per cell robust z, rep 2 = -3.58; Wolbachia per cell robust z, rep 3 = -2.79
mamo [DRSC26998] — Wolbachia per cell robust z, rep 1 = -1.57; Wolbachia per cell robust z, rep 2 = -0.651; Wolbachia per cell robust z, rep 3 = -1.11
mamo [DRSC29723] — Wolbachia per cell robust z, rep 1 = -1.42; Wolbachia per cell robust z, rep 2 = 0.00105; Wolbachia per cell robust z, rep 3 = -10.1
CG32718 [DRSC17538] — Wolbachia per cell robust z, rep 1 = -0.0982; Wolbachia per cell robust z, rep 2 = -0.187; Wolbachia per cell robust z, rep 3 = 0.276
CG14982 [DRSC23022] — Wolbachia per cell robust z, rep 1 = -0.365; Wolbachia per cell robust z, rep 2 = -0.584; Wolbachia per cell robust z, rep 3 = 0.422
CG42376 + cin [DRSC29294] — Wolbachia per cell robust z, rep 1 = 1.5; Wolbachia per cell robust z, rep 2 = 0.816; Wolbachia per cell robust z, rep 3 = 0.642
maf-S [DRSC07348] — Wolbachia per cell robust z, rep 1 = 0.581; Wolbachia per cell robust z, rep 2 = 0.596; Wolbachia per cell robust z, rep 3 = -1.44
ppk7 [DRSC03236] — Wolbachia per cell robust z, rep 1 = 0.417; Wolbachia per cell robust z, rep 2 = 0.813; Wolbachia per cell robust z, rep 3 = 0.397
